# Laboratory results taken from patent US6284456, “Transcriptional coactivator that interacts with Tat protein and regulates its binding to TAR RNA, methods for modulating Tat transactivation, and uses therefor” (The Salk Institute for Biological Studies, dated 2001).
# B1: GST-cyclin T1 (other)
# chain: MEGERKNNNKRWYFTREQLENSPSRRFGVDPDKELSYRQQAANLLQDMGQRLNVSQLTINTAIVYMHRFYMIQSFTQFPGNSVAPAALFLAAKVEEQPKKLEHVIKVAHTCLHPQESLPDTRSEAYLQQVQDLVILESIILQTLGFELTIDHPHTHVVKCTQLVRASKDLAQTSYFMATNSLHLTTFSLQYTPPVVACVCIHLACKWSNWEIPVSTDGKHWWEYVDATVTLELLDELTHEFLQILEKTPNRLKRIWNWRACEAAKKTKADDRGTDEKTSEQTILNMISQSSSDTTIAGLMSMSTSTTSAVPSLPVSEESSSNLTSVEMLPGKRWLSSQPSFKLEPTQGHRTSENLALTGVDHSLPQDGSNAFISQKQNSKSVPSAKVSLKEYRAKHAEELAAQKRQLENMEANVKSQYAYAAQNLLSHHDSHSSVILKMPIEGSENPERPFLEKADKTALKMRIPVAGGDKAASSKPEEIKMRIKVHAAADKHNSVEDSVTKSREHKEKHKTHPSNHHHHHNHHSHKHSHSQLPVGTGNKRPGDPKHSSQTSNLAHKTYSLSSSFSSSSSTRKRGPSEETGGAVFDHPAKIAKSTKSSSLNFSFPSLPTMGQMPGHSSDTSGLSFSQPSCKTRVPHSKLDKGPTGANGHNTTQTIDYQDTVNMLHSLLSAQGVQPTQPTAFEFVRPYSDYLNPRSGGISSRSGNTDKPRPPPLPSEPPPPLPPLPK
# Target: GST-Tat-1 C22G ([…]) (HIV-1)
# Assay: gel mobility shift with TAR-1 RNA, 400 ng GST-Tat and 750 ng GST-cyclin T1
binder,measurement,value
B1,binding result,no binding
